Values of other authors, collected in article PMC8954747 (Viruses, 2022).

Amino acid sequences for entries named in this document (tags omitted). A change or cut given only in a name is not applied to a line headed by its entry. Residues count along the entry.
UniProt Q14155: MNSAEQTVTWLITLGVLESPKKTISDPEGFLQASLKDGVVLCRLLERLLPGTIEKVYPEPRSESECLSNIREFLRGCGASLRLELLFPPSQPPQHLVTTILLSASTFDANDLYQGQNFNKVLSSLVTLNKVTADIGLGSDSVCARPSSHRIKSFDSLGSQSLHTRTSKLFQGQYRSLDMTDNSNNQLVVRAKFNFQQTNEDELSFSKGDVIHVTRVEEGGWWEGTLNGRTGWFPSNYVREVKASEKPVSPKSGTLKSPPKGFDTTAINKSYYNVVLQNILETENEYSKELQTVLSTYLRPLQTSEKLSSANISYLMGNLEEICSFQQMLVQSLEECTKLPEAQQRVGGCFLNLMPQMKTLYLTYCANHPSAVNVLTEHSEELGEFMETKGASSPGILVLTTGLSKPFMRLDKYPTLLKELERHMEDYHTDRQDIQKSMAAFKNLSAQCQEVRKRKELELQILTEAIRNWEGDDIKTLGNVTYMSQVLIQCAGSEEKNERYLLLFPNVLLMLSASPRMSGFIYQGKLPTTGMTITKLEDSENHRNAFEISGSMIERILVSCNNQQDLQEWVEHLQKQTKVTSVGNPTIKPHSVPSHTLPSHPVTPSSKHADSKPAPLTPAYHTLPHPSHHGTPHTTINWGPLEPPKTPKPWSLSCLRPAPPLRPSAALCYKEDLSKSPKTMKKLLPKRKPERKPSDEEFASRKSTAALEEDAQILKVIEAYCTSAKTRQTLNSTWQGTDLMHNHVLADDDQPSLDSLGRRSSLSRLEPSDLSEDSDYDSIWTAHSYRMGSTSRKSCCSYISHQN
UniProt Q14160, 725-818: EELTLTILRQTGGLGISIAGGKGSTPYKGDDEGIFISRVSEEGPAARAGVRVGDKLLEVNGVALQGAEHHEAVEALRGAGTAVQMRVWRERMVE
UniProt Q14160, 1002-1093 limits assumed: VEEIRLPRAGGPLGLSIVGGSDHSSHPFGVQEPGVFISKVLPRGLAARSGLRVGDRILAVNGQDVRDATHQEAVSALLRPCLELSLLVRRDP
UniProt Q14160, 725-815 limits assumed: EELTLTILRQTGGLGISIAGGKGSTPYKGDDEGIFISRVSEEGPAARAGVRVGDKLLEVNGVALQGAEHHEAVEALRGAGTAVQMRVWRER
UniProt Q14160, 860-950 limits assumed: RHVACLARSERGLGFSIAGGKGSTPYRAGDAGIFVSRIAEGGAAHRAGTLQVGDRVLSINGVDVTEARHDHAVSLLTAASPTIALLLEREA

Experiments:
[1] = biological target: β-PIX PBM (Homo sapiens) (UniProt Q14155); conditions: cited from earlier work
[2] = biological target: SCRIB PDZ3 (residues 1002–1093) (Homo sapiens, UniProt Q14160); conditions: ITC, previously measured; read-out: affinity of SCRIB PDZ3 for β-PIX; cited from earlier work
[3] = biological target: human Scribble (SCRIB) PDZ1 domain (residues 725–815) (Homo sapiens, UniProt Q14160); conditions: ITC, previously measured; read-out: affinity of SCRIB PDZ1 for β-PIX; cited from earlier work
[4] = biological target: human Scribble (SCRIB) PDZ2 domain (residues 860–950) (Homo sapiens, UniProt Q14160); conditions: ITC, previously measured; read-out: affinity of SCRIB PDZ2 for β-PIX; cited from earlier work

Row | Substance | Kd [1] [µM] | Kd [2] [µM] | Kd [3] [µM] | Kd [4] [µM]
1 | SCRIB PDZ1 (from UniProt Q14160) | 3.3 | – | – | –
2 | PAWDETNL [β-PIX] | – | 14.7 ± 2.1 | 3.3 ± 0.3 | 67.8 ± 7.9
